Measured values from several laboratories, pooled; numbers as filed in NIAID ChemDB.

Shared fields: tests in culture; organism: HIV-1

ECn: concentration that inhibits the pathogen or its effect by n%. Two numbers with a dash give a range or band. An empty or dashed field is not shown. Rows are shuffled and stem from different studies.

{"structure": "CCOCn1c(Cc2ccccc2)c(C#N)c(=O)n(COCC)c1=O", "strain or isolate": "IIIB", "measure": "EC50", "cells": "MT-4", "value": ">100 µM"}
{"structure": "Cn1cc(C(=O)O)c(=O)c2sc(N3CCN(c4nc5ccccc5s4)CC3)nc21", "strain or isolate": "IIIB", "measure": "EC50", "method": "MTT", "cells": "MT-4", "value": ">2.05 µM"}
{"structure": "CN1N=C(N)c2cn([C@@H]3O[C@H](COP(=O)(O)O)[C@@H](O)[C@H]3O)c3ncnc1c23", "strain or isolate": "SK1", "measure": "EC50", "method": "cytopathic effect / XTT", "cells": "CEM + CEM-SS", "value": "0.19 µM"}
{"structure": "C=Cn1cc(C(=O)O)c(=O)c2ccc(N3CCN(c4cccc(C(F)(F)F)c4)CC3)nc21", "strain or isolate": "IIIB", "measure": "EC50", "method": "MTT", "cells": "MT-4", "value": "0.6 µM"}
{"structure": "Cc1cccc(C)c1OCC(=O)N[C@@H](Cc1ccccc1)[C@H](O)CN(CC(C)C)S(=O)(=O)c1ccc2nc(N)sc2c1", "strain or isolate": "LAI", "measure": "EC50", "method": "cytopathic effect / MTT", "cells": "MT-4", "value": "0.007 µM"}
{"structure": "CC(C)C[C@H](NC(=O)[C@@H](O)[C@H](N)Cc1ccccc1)C(=O)O", "strain or isolate": "IIIB", "measure": "EC50", "method": "syncytia", "cells": "HuT-78 + HUT 78", "value": "<20 µg/mL"}
{"structure": "COc1cc2c(cc1OC)C1=NOC(c3ccco3)C1C2", "strain or isolate": "IIIB", "measure": "EC50", "method": "MTT", "cells": "MT-4", "value": ">10.97 µM"}
{"structure": "N#CC1C=Cc2c(ccc3ccccc23)N1C(=O)c1ccco1", "strain or isolate": "IIIB", "measure": "EC50", "method": "syncytia", "cells": "MOLT-3", "value": "44.1 µM"}
{"structure": "CC(C)CN(CCC(O)Cc1ccccc1C(=O)NC(C)(C)C)S(=O)(=O)c1ccccc1", "strain or isolate": "IIIB", "measure": "EC50", "method": "p24", "cells": "CEM", "value": "<1 µM"}
{"structure": "CN1C(c2cccc(O)c2)c2ccccc2S1(=O)=O", "measure": "EC50", "method": "p24 / RT activity", "value": "38.7 µM"}
{"structure": "COc1ccc(S(=O)(=O)N(CC(C)C)CC(O)Cc2ccccc2C(=O)NC(C)(C)C)cc1", "strain or isolate": "IIIB", "measure": "EC90", "method": "p24", "cells": "CEM", "value": "1 µM"}
{"structure": "C=Cn1cc(C(=O)O)c(=O)c2ccc(N3CCN(c4nc5ccccc5o4)CC3)nc21", "strain or isolate": "IIIB", "measure": "EC50", "method": "MTT", "cells": "MT-4", "value": "0.86 µM"}
{"structure": "CCOCn1c(Cc2ccccc2)c(C#N)c(=O)[nH]c1=O", "strain or isolate": "IIIB", "measure": "EC50", "cells": "MT-4", "value": "10 µM"}
{"structure": "CCCOC(=O)N1c2ccc3ccccc3c2C=CC1C#N", "strain or isolate": "IIIB", "measure": "EC50", "method": "syncytia", "cells": "MOLT-3", "value": "6.1 µM"}
{"structure": "Cn1cc(C(=O)O)c(=O)c2cc(N)c(N3CCN(c4ccccn4)CC3)nc21", "strain or isolate": "IIIB", "measure": "EC50", "method": "MTT", "cells": "MT-4", "value": "1.49 µM"}
{"structure": "C=CCN(C(=O)OCc1ccc([N+](=O)[O-])cc1)C1CCN(C[C@H]2CN(C(=O)C3CCCC3)C[C@]2(O)c2ccccc2)CC1", "strain or isolate": "J18 R5 MDR CLADE B", "measure": "EC50", "method": "p24", "cells": "PBMC", "mutations": "PR-L10I M36I L63P A71T L60M RT-M41L E44D T69D V108I V118I L210W T215D", "value": "0.00076 µM"}
{"structure": "COc1ccc(C2ON=C3c4cc(OC)c(OC)cc4CC32)cc1", "strain or isolate": "IIIB", "measure": "EC50", "method": "MTT", "cells": "MT-4", "value": ">12.5 µM"}
{"structure": "COc1ccc(S(=O)(=O)N(CC(C)C)CC(F)(F)C(=O)[C@@H](Cc2ccccc2)NC(=O)O[C@H]2CCOC2)cc1", "strain or isolate": "IIIB", "measure": "EC90", "method": "p24", "cells": "CEM", "value": "1 µM"}
{"structure": "C=Cn1cc(C(=O)O)c(=O)c2ccc(N3CCN(c4nccs4)CC3)nc21", "strain or isolate": "IIIB", "measure": "EC50", "method": "MTT", "cells": "MT-4", "value": "1.46 µM"}
{"structure": "CC(C)CN(C(=O)C(=O)C(=O)c1ccccc1C(=O)NC(C)(C)C)S(=O)(=O)c1ccccc1", "strain or isolate": "IIIB", "measure": "EC50", "method": "p24", "cells": "CEM", "value": "<1 µM"}
{"structure": "Cc1cn([C@@H]2O[C@H](CO)C=C2F)c(=O)[nH]c1=O", "measure": "EC50", "method": "p24", "cells": "CEM", "value": "10–100 µM"}
{"structure": "CC(C)(C)NC(=O)N(Cc1ccccc1)CC(O)CN(CC1CCCC1)S(=O)(=O)c1ccccc1", "strain or isolate": "IIIB", "measure": "EC50", "method": "p24", "cells": "CEM", "value": "<1 µM"}
{"structure": "O=S1(=O)NC(c2cccc(Cl)c2)c2ccccc21", "measure": "EC50", "method": "p24 / RT activity", "value": "33.8 µM"}
{"structure": "C=Cc1c(Cc2ccccc2)n(COCC)c(=O)[nH]c1=O", "measure": "EC50", "mutations": "RT-Y181C", "value": "100 µM"}
{"structure": "Cc1c(O)cccc1C(=O)N[C@@H](Cc1ccccc1)[C@H](O)CN(CC(C)C)S(=O)(=O)c1ccc2nc(N)sc2c1", "strain or isolate": "LAI", "measure": "EC50", "method": "cytopathic effect / MTT", "cells": "MT-4", "value": "0.014 µM"}
{"structure": "COc1ccc(S(=O)(=O)N(CC(C)C)C[C@@H](O)CCN(CC2CCCC2)S(=O)(=O)C2SC(NC(C)=O)=NC2C)cc1", "strain or isolate": "IIIB", "measure": "EC50", "method": "p24", "cells": "CEM", "value": "<1 µM"}
{"structure": "CNc1nc2ccc(S(=O)(=O)N(CC(C)C)C[C@@H](O)[C@H](Cc3ccccc3)NC(=O)OCc3cnco3)cc2s1", "strain or isolate": "LAI", "measure": "EC50", "method": "cytopathic effect / MTT", "cells": "MT-4", "value": "0.003 µM"}
{"structure": "COc1cc2c(cc1OC)C1=NOC(c3cccc(N)c3)C1C2", "strain or isolate": "IIIB", "measure": "EC50", "method": "MTT", "cells": "MT-4", "value": ">13.83 µM"}
{"structure": "CC(C)CN(C[C@@H](O)[C@H](Cc1ccccc1)NC(=O)OC1CCOC1)S(=O)(=O)c1ccc2nc(N)sc2c1", "strain or isolate": "LAI", "measure": "EC50", "method": "cytopathic effect / MTT", "cells": "MT-4", "value": "0.004 µM"}
{"structure": "Cn1cc(C(=O)O)c(=O)c2cnc(N3CCN(c4nc5ccccc5s4)CC3)cc21", "strain or isolate": "IIIB", "measure": "EC50", "method": "MTT", "cells": "MT-4", "value": ">0.08 µM"}
{"structure": "O=S(=O)(O)c1ccc(NS(=O)(=O)c2ccc(-c3ccc(S(=O)(=O)Nc4ccc(S(=O)(=O)O)c5cccc(S(=O)(=O)O)c45)cc3)cc2)c2c(S(=O)(=O)O)cccc12", "strain or isolate": "IIIB", "measure": "EC50", "method": "syncytia", "cells": "MT-4", "value": "80 µg/mL"}
{"structure": "CC(C)CN(C[C@@H](O)[C@H](Cc1ccccc1)NC(=O)O[C@H]1CO[C@H]2OCC[C@H]21)S(=O)(=O)c1ccc2nc(N)sc2c1", "strain or isolate": "F", "measure": "EC50", "method": "cytopathic effect / MTT", "cells": "MT-4", "mutations": "PR-L10F M46I M71V I84V", "value": "0.004 µM"}
{"structure": "Nn1cc(C(=O)O)c(=O)c2ccc(N3CCN(c4nc5ccccc5s4)CC3)nc21", "strain or isolate": "IIIB", "measure": "EC50", "method": "MTT", "cells": "MT-4", "value": "1.18 µM"}
{"structure": "CN1C(c2ccc(F)cc2)c2ccccc2S1(=O)=O", "measure": "EC50", "method": "p24 / RT activity", "value": "37.5 µM"}

The last 4 rows once more:

structure	strain or isolate	measure	method	cells	mutations	value
O=S(=O)(O)c1ccc(NS(=O)(=O)c2ccc(-c3ccc(S(=O)(=O)Nc4ccc(S(=O)(=O)O)c5cccc(S(=O)(=O)O)c45)cc3)cc2)c2c(S(=O)(=O)O)cccc12	IIIB	EC50	syncytia	MT-4		80 µg/mL
CC(C)CN(C[C@@H](O)[C@H](Cc1ccccc1)NC(=O)O[C@H]1CO[C@H]2OCC[C@H]21)S(=O)(=O)c1ccc2nc(N)sc2c1	F	EC50	cytopathic effect / MTT	MT-4	PR-L10F M46I M71V I84V	0.004 µM
Nn1cc(C(=O)O)c(=O)c2ccc(N3CCN(c4nc5ccccc5s4)CC3)nc21	IIIB	EC50	MTT	MT-4		1.18 µM
CN1C(c2ccc(F)cc2)c2ccccc2S1(=O)=O		EC50	p24 / RT activity			37.5 µM